Reference: patent US9687432B2, “Antimicrobial bispyridine amine compositions and uses” (LONZA INC., priority 2012, dated 2017)
Structures can show the parent of a compound that is named as a salt.

Assay: Corrosion testing on metal coupons
Settings: Aluminum coupon
[1] = 0.3% active in ethanol added as a 20% or 30% solution in propylene glycol, 7 days (samples 5-8)
[2] = 0.3% active in ethanol added directly, 5 days (samples 1, 2)

SMILES | corrosion Results (visual) [1] | corrosion Results (visual) [2] | corrosion Results (visual) (0.3% in ethanol added directly, 7 days (samples 9, 10))
CCCCCCCCN=c1ccn(CCCCCCCCCCn2ccc(=NCCCCCCCC)cc2)cc1 [Octenidine HCl, Octenidine dihydrochloride] | Uniform corrosion on | Corrosion on majority of | 
CCCCCCCCCCCCCCCCCC(=O)O.CCCCCCCCCCCCCCCCCC(=O)O.CCCCCCCCN=c1ccn(CCCCCCCCCCn2ccc(=NCCCCCCCC)cc2)cc1 [Octenidine distearate, octenidine distearate] | Vey little corrosion except | Vey little corrosion except | 
CCCCCCCCCCCCCCCCCC(=O)O [stearic acid] |  |  | No corrosion
